A mixed list of measured activities; the numbers were collected in NIAID ChemDB.

All rows: whole-cell or culture tests; species: Mycobacterium tuberculosis

ECn is the concentration giving n% inhibition of infection, replication or growth. Lines come from different laboratories, so protocols vary. Inhibition is in % at the dose shown (toxicity tests: loss of growth or viability). MIC bound comes from a single tested concentration. Blank or dashed fields: not listed here. A number after MIC or MFC names an inhibition level or a share of isolates.

compound,dose,read by,endpoint,strain,conditions,value
O=C(/C=C/c1cc2ccccc2[nH]1)c1ccncc1,-,-,EC50,H37Rv,-,>12.5 µg/mL
C[C@H]1COc2c(N3CCN(C)CC3)c(F)cc3c(=O)c(C(=O)O)cn1c23,-,-,MIC,ATCC35838,-,0.25 µg/mL
CO[C@H]1/C=C/O[C@@]2(C)Oc3c(C)c(O)c4c(O)c(c5c(c4c3C2=O)NC2(CCN(CC(C)C)CC2)N=5)=NC(=O)/C(C)=C\C=C\[C@H](C)[C@H](O)[C@@H](C)[C@@H](O)[C@@H](C)[C@H](OC(C)=O)[C@@H]1C,-,-,MIC,Strain 83 84,-,2 µg/mL
Cc1ccc(Sc2ncccn2)cc1,6.25 µg/mL,-,inhibition,H37Rv,-,0%
COc1cccc(NC(=S)/C(=C(\[O-])c2ccc([N+](=O)[O-])cc2)[n+]2ccccc2)c1,-,BACTEC,MIC bound,H37Rv,-,>12.5 µg/mL
CO[C@H]1/C=C/O[C@@]2(C)Oc3c(C)c(O)c4c(O)c(c(/C=N/N5CCN(C)CC5)c(O)c4c3C2=O)NC(=O)/C(C)=C\C=C\[C@H](C)[C@H](O)[C@@H](C)[C@@H](O)[C@@H](C)[C@H](OC(C)=O)[C@@H]1C,-,-,MIC,TN715,-,>32 µg/mL
CC1(C)[C@H]2CC[C@@H](CNCCNC34CC5CC(CC(C5)C3)C4)[C@@H]1C2,-,-,MIC,-,-,12.5 µM
CN=C(N)N/N=C(\C)c1ccc2oc3ccc(/C(C)=N/NC(N)=NC)cc3c2c1,12.5 µg/mL,BACTEC,inhibition,H37Rv,-,0%
COc1ccccc1CSc1nc(=O)[nH]c2nc[nH]c12,-,-,MIC,H37Ra,-,>12.8 µg/mL
O=C1c2ccccc2OC(c2ccccc2)C1O,-,-,EC50,H37Rv,-,>12.5 µg/mL
NC(=N\N=C(/c1ccccc1)c1ccc(N)cc1)/C(N)=N/N=C(\c1ccccc1)c1ccc(N)cc1,12.5 µg/mL,BACTEC,inhibition,H37Rv,-,8%
CC(CNCCNC(C)(C)CO)c1ccccc1,-,-,MIC,-,-,50 µM
CO[C@H]1/C=C/O[C@@]2(C)Oc3c(C)c(O)c4c(O)c(c5c(c4c3C2=O)NC2(CCN(CC(C)C)CC2)N=5)=NC(=O)/C(C)=C\C=C\[C@H](C)[C@H](O)[C@@H](C)[C@@H](O)[C@@H](C)[C@H](OC(C)=O)[C@@H]1C,-,-,MIC,2275 (rifampin-resistant),-,0.4 µg/mL
CC1OCC2OC(C)OC(C(C3C(=O)CC(C)(C)CC3=O)C3C(=O)CC(C)(C)CC3=O)C2O1,12.5 µg/mL,BACTEC,inhibition,H37Rv,-,-4%
COc1ccc2oc(=S)n(-c3ccc(Cl)c(Cl)c3)c(=S)c2c1,-,-,MIC,My 331/88,21 d,32 µM
c1c[nH]c(Sc2ncnc3nc[nH]c23)n1,-,-,MIC90,H37Rv,-,>6.25 µg/mL
O=C1CC(c2ccccc2)Oc2cc(F)ccc21,-,-,EC50,-,-,>12.5 µg/mL
CC1CN(c2cc3c(cc2F)c(=O)c(C(=O)O)cn3-c2ccc(F)cc2F)CCN1,-,-,MIC,H37Rv,-,1 µg/mL
CCNC(=S)S,-,BACTEC,MIC,H37Rv,-,≥12.5 µg/mL
CCCCCCSc1nc(Cl)nc2nc[nH]c12,-,-,MIC90,H37Rv,-,>6.25 µg/mL
CCOC(=O)Nc1cc2ncc(CN(C)c3ccccc3)nc2c(N)n1,-,-,EC50,H37Rv,-,<12.5 µg/mL
NC(=O)c1cnccn1,-,-,MIC,Isolate 9769 monodrug-resistant,-,>300 µg/mL
O=C(NNC(=O)c1ccc2ccccc2n1)c1ccc2ccccc2n1,-,BACTEC,MIC bound,H37Rv,-,>12.5 µg/mL
COc1ccc2c(=O)c(-c3c(-c4ccccc4)oc4cc(OC)ccc4c3=O)c(-c3ccccc3)oc2c1,-,-,EC50,-,-,>12.5 µg/mL
OCC1=C[C@@H](O)[C@@H]2C=CO[C@@H](O[C@@H]3O[C@H](CO)[C@@H](O)[C@H](O)[C@H]3O)[C@H]12,12.5 µg/mL,BACTEC,inhibition,H37Rv,-,22%
C[C@H]1COc2c(N3CCN(C)CC3)c(F)cc3c(=O)c(C(=O)O)cn1c23,-,-,MIC,5R,-,0.5 µg/mL
Clc1ccccc1CCNCCNC1CCCCCCC1,-,-,MIC,-,-,50 µM
O=C(/C=C/c1ccccc1)c1cccc(I)c1O,-,-,EC50,H37Rv,-,>12.5 µg/mL
Cc1ccccc1CSc1ccccn1,-,-,MIC90,H37Rv,-,>6.25 µg/mL
O=[N+]([O-])c1cc2c(ccc3cc(Br)ccc32)o1,6.25 µg/mL,resazurin,inhibition,H37Rv,-,3%
c1ccc2c(c1)CC(NCCNC1C3CC4CC(C3)CC1C4)C2,-,-,MIC,-,-,25 µM
CC(C)=CC/C(C)=C/CNCCNC(c1ccccc1)c1ccccc1,-,-,MIC,-,-,12.5 µM
Fc1ccc(-n2c(=S)oc3ccc(F)cc3c2=S)cc1,-,-,MIC,My 331/88,14 d,1 µM
CO[C@H]1/C=C/O[C@@]2(C)Oc3c(C)c(O)c4c(O)c(c(/C=N/N5CCN(C/C=C/c6ccccc6)CC5)c(O)c4c3C2=O)NC(=O)/C(C)=C\C=C\[C@H](C)[C@H](O)[C@@H](C)[C@@H](O)[C@@H](C)[C@H](OC(C)=O)[C@@H]1C,-,-,MBC,2219 (rifampin-resistant),-,0.8 µg/mL
NC[C@H]1O[C@H](O[C@H]2[C@H](O)[C@@H](O[C@H]3O[C@H](CO)[C@@H](O)[C@H](N)[C@H]3O)[C@H](N)C[C@@H]2N)[C@H](O)[C@@H](O)[C@@H]1O,-,-,MIC,TN2508 (001/16),-,>256 µg/mL
CCOC(=O)Nc1cc(NC(c2ccccc2)c2ccccc2)c([N+](=O)[O-])c(N)n1,-,-,EC50,H37Rv,-,>12.5 µg/mL
COc1ccc(C(=O)/C=C/c2ccncc2)cc1,-,-,EC50,-,-,>12.5 µg/mL
CN1C(=O)C2(Nc3ccccc3N2)c2ccccc21,-,BACTEC,MIC bound,H37Rv,-,>12.8 µg/mL
COc1ccc(-c2oc3cc(OC)cc(OC)c3c(=O)c2-c2c(-c3ccc(OC)cc3)oc3cc(OC)cc(OC)c3c2=O)cc1,-,-,EC50,H37Rv,-,>12.5 µg/mL
CC[C@H]1OC(=O)[C@H](C)[C@@H](O[C@H]2C[C@@](C)(OC)[C@@H](O)[C@H](C)O2)[C@H](C)[C@@H](O[C@@H]2O[C@H](C)C[C@H](N(C)C)[C@H]2O)[C@](C)(O)C[C@@H](C)C(=O)[C@H](C)[C@@H](O)[C@]1(C)O,-,-,MIC,ATCC35838,-,>8 µg/mL
CO[C@H]1/C=C/O[C@@]2(C)Oc3c(C)c(O)c4c(O)c(c(/C=N/N5CCN(C)CC5)c(O)c4c3C2=O)NC(=O)/C(C)=C\C=C\[C@H](C)[C@H](O)[C@@H](C)[C@@H](O)[C@@H](C)[C@H](OC(C)=O)[C@@H]1C,-,-,MIC,3S,-,1 µg/mL
NCC[C@H](O)C(=O)N[C@@H]1C[C@H](N)[C@@H](O[C@H]2O[C@H](CN)[C@@H](O)[C@H](O)[C@H]2O)[C@H](O)[C@H]1O[C@H]1O[C@H](CO)[C@@H](O)[C@H](N)[C@H]1O,-,broth dilution / resazurin,MIC,MDR22,-,2 µg/mL
CCCCC(CC)CN1CN(CC(CC)CCCC)CC(C)(NCCNCc2cc(OC)c(OC)c(OC)c2)C1,-,-,MIC,-,-,12.5 µM
CC1=C(CCC(=O)O)c2cc3nc(cc4[nH]c(cc5[nH]c(cc1n2)c(C)c5C(C)O)c(C)c4C(C)O)C(C)=C3CCC(=O)O,-,BACTEC,MIC,H37Rv,-,≥12.8 µg/mL
CO[C@H]1/C=C/O[C@@]2(C)Oc3c(C)c(O)c4c(O)c(c5c(c4c3C2=O)NC2(CCN(CC(C)C)CC2)N=5)=NC(=O)/C(C)=C\C=C\[C@H](C)[C@H](O)[C@@H](C)[C@@H](O)[C@@H](C)[C@H](OC(C)=O)[C@@H]1C,-,-,MIC,Isolate 910328 rifampicin-resistant,-,16 µg/mL
Nc1nc(N)nc(-c2ccccc2-n2nnc3ccccc3c2=O)n1,-,BACTEC,MIC bound,H37Rv,-,>12.5 µg/mL
CC[C@H]1OC(=O)[C@H](C)[C@@H](O[C@H]2C[C@@](C)(OC)[C@@H](O)[C@H](C)O2)[C@H](C)[C@@H](O[C@@H]2O[C@H](C)C[C@H](N(C)C)[C@H]2O)[C@](C)(OC)C[C@@H](C)C(=O)[C@H](C)[C@@H](O)[C@]1(C)O,-,-,MBC90,DRUG-SUS,-,>8 µg/mL
CC1=C(C)C(=O)O[C@H]([C@](C)(O)[C@]2(O)CC[C@@]3(O)[C@@H]4C[C@H](Cl)[C@]5(O)[C@@H](O)C=CC(=O)[C@]5(C)[C@H]4CC[C@]23C)C1,-,BACTEC,MIC,H37Rv,-,≥12.5 µg/mL
Fc1ccc(CCNCCNCCCCc2ccccc2)cc1,-,-,MIC,-,-,25 µM
CCCCCCCCCCCCCCCCCCNCCNC1C2CC3CC(C2)CC1C3,-,-,MIC,-,-,50 µM
CCCCC(CC)CN1CN(CC(CC)CCCC)CC(C)(NCCNCC(O)CO)C1,-,-,MIC,-,-,25 µM
CCCCC(CC)CN1CN(CC(CC)CCCC)CC(C)(NCCNCCCO)C1,-,-,MIC,-,-,12.5 µM
Cn1nnc(/C(N)=N/N=C/c2ccccc2)n1,-,BACTEC,MIC,H37Rv,-,≥12.5 µg/mL
NC1CCN(c2c(F)cc3c(=O)c(C(=O)O)cn(C4CC4)c3c2Cl)C1,-,-,MIC50,Drug-resistant,-,0.125 µg/mL
Cn1c(=O)c2[nH]c(=O)c(C(CO)C(=O)c3ccccc3)nc2n(C)c1=O,-,BACTEC,MIC bound,H37Rv,-,>12.5 µg/mL
CCOC(=O)Nc1cc2[nH]c(-c3cc(OC)c(OC)c(OC)c3)nc2c(N(CCc2ccccc2)Cc2ccccc2)n1,-,-,EC50,H37Rv,-,<12.5 µg/mL
Cc1ccc(-n2c(=S)oc3ccc(Br)cc3c2=S)cc1,-,-,MIC,My 331/88,21 d,1 µM
COc1ccc(CCNCCNCCc2ccc(Cl)cc2Cl)cc1,-,-,MIC,-,-,50 µM
CC1C2=C(C(=O)N1Cc1ccccc1)C([C@@H]1O[C@H](COC(=O)c3ccccc3)[C@@H](OC(=O)c3ccccc3)[C@H]1OC(=O)c1ccccc1)C(=O)N(C)C2=O,-,BACTEC,MIC bound,H37Rv,-,>12.5 µg/mL
C[C@H](O)CNCCNCCc1c[nH]c2ccccc12,-,-,MIC,-,-,25 µM
CCCCCCCCC/C=N/Nc1ccc([N+](=O)[O-])cn1,12.5 µg/mL,BACTEC,inhibition,H37Rv,-,97%
CCCOC(=O)Nc1cc(NC(c2ccccc2)c2ccccc2)c2nc(-c3cc(OC)c(OC)c(OC)c3)c(-c3cc(OC)c(OC)c(OC)c3)nc2n1,-,-,EC50,H37Rv,-,>12.5 µg/mL
CCO/C(CCn1[nH]c(=O)c(Cl)c(Cl)c1=O)=N\NC(=O)C(=O)NN,12.5 µg/mL,BACTEC,inhibition,H37Rv,-,14%
CCOC(=O)Nc1cc(NCCc2ccc(S(N)(=O)=O)cc2)c(N)c(N)n1,-,-,EC50,H37Rv,-,>12.5 µg/mL
NC(=O)C[n+]1cccc(C(N)=O)c1.[Cl-],-,BACTEC,MIC bound,H37Rv,-,>12.5 µg/mL
CCCCSc1nc(Cl)nc2nc[nH]c12,-,-,MIC,H37Ra,-,>12.8 µg/mL
COC(=O)[C@H]1[C@H]2C[C@@H]3c4[nH]c5ccccc5c4CCN3C[C@H]2C[C@@H](O)[C@@H]1OC(=O)c1cc(OC)c(OC)c(OC)c1,-,BACTEC,MIC bound,H37Rv,-,>12.8 µg/mL
CCCCCCCCCCCNCCNCc1cccc(OC)c1OC,-,-,MIC,-,-,25 µM
Cc1ccc(N=Cc2c(O)c(O)c(C(C)C)c3cc(C)c(-c4c(C)cc5c(C(C)C)c(O)c(O)c(C=Nc6ccc(C)c(F)c6)c5c4O)c(O)c23)cc1F,-,BACTEC,MIC bound,H37Rv,-,>12.5 µg/mL
S=c1oc2ccc(Br)cc2c(=S)n1-c1ccc(Br)cc1,-,-,MIC,My 331/88,14 d,1 µM

Repeating the final 10 entries:

compound,dose,read by,endpoint,strain,conditions,value
CCCCCCCCC/C=N/Nc1ccc([N+](=O)[O-])cn1,12.5 µg/mL,BACTEC,inhibition,H37Rv,-,97%
CCCOC(=O)Nc1cc(NC(c2ccccc2)c2ccccc2)c2nc(-c3cc(OC)c(OC)c(OC)c3)c(-c3cc(OC)c(OC)c(OC)c3)nc2n1,-,-,EC50,H37Rv,-,>12.5 µg/mL
CCO/C(CCn1[nH]c(=O)c(Cl)c(Cl)c1=O)=N\NC(=O)C(=O)NN,12.5 µg/mL,BACTEC,inhibition,H37Rv,-,14%
CCOC(=O)Nc1cc(NCCc2ccc(S(N)(=O)=O)cc2)c(N)c(N)n1,-,-,EC50,H37Rv,-,>12.5 µg/mL
NC(=O)C[n+]1cccc(C(N)=O)c1.[Cl-],-,BACTEC,MIC bound,H37Rv,-,>12.5 µg/mL
CCCCSc1nc(Cl)nc2nc[nH]c12,-,-,MIC,H37Ra,-,>12.8 µg/mL
COC(=O)[C@H]1[C@H]2C[C@@H]3c4[nH]c5ccccc5c4CCN3C[C@H]2C[C@@H](O)[C@@H]1OC(=O)c1cc(OC)c(OC)c(OC)c1,-,BACTEC,MIC bound,H37Rv,-,>12.8 µg/mL
CCCCCCCCCCCNCCNCc1cccc(OC)c1OC,-,-,MIC,-,-,25 µM
Cc1ccc(N=Cc2c(O)c(O)c(C(C)C)c3cc(C)c(-c4c(C)cc5c(C(C)C)c(O)c(O)c(C=Nc6ccc(C)c(F)c6)c5c4O)c(O)c23)cc1F,-,BACTEC,MIC bound,H37Rv,-,>12.5 µg/mL
S=c1oc2ccc(Br)cc2c(=S)n1-c1ccc(Br)cc1,-,-,MIC,My 331/88,14 d,1 µM